Measured values from several laboratories, pooled; numbers as filed in NIAID ChemDB.

All rows: tests in culture; organism: Mycobacterium tuberculosis

ECn is the concentration giving n% inhibition of infection, replication or growth.

compound,strain,changes,read by,conditions,measure,tested at,result
CN1CC2(Cc3ccccc3)c3ccccc3NC2(NC(=O)C(=O)NC23Nc4ccccc4C2(Cc2ccccc2)CN(C)C3=O)C1=O,H37Rv,-,BACTEC,-,inhibition,12.8 µg/mL,25%
CC[C@@H](CO)NCCN[C@@H](CC)CO,-,-,resazurin,-,MIC,-,0.06 µg/mL
Cc1cn2c(C(=O)NCc3ccc(N4CCC(c5ccc(OC(F)(F)F)cc5)CC4)cc3)c(C)nc2s1,H37Rv,-,resazurin / fluorescence,-,MIC,-,0.007 µM
O=C1c2ccccc2-n2c1nc1ncccc1c2=O,H37Rv,-,-,-,MIC,-,0.25 µg/mL
O=c1nc(-c2cnccn2)ss1,H37Rv,-,broth dilution,-,MIC90,-,8 µg/mL
CCCCCCCCO[C@H]1O[C@H](CO[C@H]2O[C@H](COC(=O)c3ccccc3)[C@@H](OC(=O)c3ccccc3)[C@@H]2OC(=O)c2ccccc2)[C@@H](OCc2ccccc2)[C@@H]1OCc1ccccc1,H37Ra,-,-,-,MIC,-,>128 µg/mL
Nc1ccc2snc3c2c1C(=O)c1ccccc1-3,H37Rv,-,BACTEC,-,MIC bound,-,>12.5 µg/mL
O=[N+]([O-])c1ccc(-c2nnc(SCc3ccccc3[N+](=O)[O-])s2)o1,H37Rv,-,-,-,MIC,-,6.25 µg/mL
C=CCN1C(=O)/C(=C/c2ccccc2OC)S/C1=N\c1nc2ccccc2s1,H37Rv,-,-,-,MIC,-,≥25 µg/mL
C[C@@]12CCC[C@@](C)(C(=O)O)[C@H]1CC[C@]13CC(=O)O[C@@H](CC[C@H]12)C3,-,-,resazurin,-,MIC,-,200 µg/mL
COC(=O)c1sc(NC(=O)c2c(F)c(F)c(F)c(F)c2F)c(C(N)=O)c1C,-,-,-,-,MIC,-,4.9 µM
C=CCN1C(=O)/C(=C\c2ccccn2)S/C1=N\c1nc2ccccc2s1,H37Rv,-,-,-,MIC,-,≥25 µg/mL
Cc1nn(-c2ccccc2)c2c1C(c1cn(-c3ccccc3)nc1-c1ccc(Cl)cc1)C1=C(NC(C)(c3cc(O)ccc3Cl)NC1=O)O2,MTCC 300,-,agar diffusion / agar,-,zone,1 mg/mL,1.9 mm
CCC(CC)c1nc2c([nH]1)C1=NC(=O)/C(C)=C\C=C\[C@H](C)[C@H](O)[C@@H](C)[C@@H](O)[C@@H](C)[C@H](OC(C)=O)[C@H](C)[C@@H](OC)/C=C/O[C@@]3(C)Oc4c(C)c(O)c(c-2c4C3=O)C1=O,H37Rv,-,-,-,MIC,-,0.002 µg/mL
O=c1oc(-c2cc(F)c(Cl)nc2Cl)ns1,H37Rv,-,broth dilution,-,MIC99,-,32 µg/mL
C=C(CO)C(=O)OC1CC(=C)C2CC(O)C(=C)C2C2OC(=O)C(=C)C12,H37Rv,-,BACTEC,-,MIC bound,-,>12.5 µg/mL
CN(C)C/C=C(/c1ccc(-c2ccc(Br)cc2)cc1)c1cccs1,ATCC 25177,-,-,-,MIC,-,20.2 µM
Cc1ccc(NC(=O)C(C)Cl)cc1Cl,H37Rv,-,BACTEC,-,inhibition,12.5 µg/mL,81%
Cc1cn2c(C(=O)NCc3ccc(N4CCN(c5ccc(C(F)(F)F)cn5)CC4)c(F)c3)c(C)nc2s1,H37Rv,QcrB1 A317V,resazurin / fluorescence,-,MIC,-,0.6 µM
CO[C@H]1/C=C/O[C@@]2(C)Oc3c(C)c(O)c4c(c3C2=O)-c2nc[nH]c2C(=NC(=O)/C(C)=C\C=C\[C@H](C)[C@H](O)[C@@H](C)[C@@H](O)[C@@H](C)[C@H](OC(C)=O)[C@@H]1C)C4=O,H37Rv,-,-,-,MIC,-,0.002 µg/mL
C=CCN1C(=O)/C(=C/c2cccc([N+](=O)[O-])c2)S/C1=N\c1nc2ccccc2s1,H37Rv,-,-,-,MIC,-,≥25 µg/mL
C[C@@]12CCC[C@@](C)(C(=O)O)[C@H]1CC[C@@]13C[C@H](CC[C@H]12)[C@@]1(CO1)C3,-,-,resazurin,-,MIC,-,100 µg/mL
COc1ccc(-c2nn(-c3ccccc3)cc2C2C3=C(NC(C)(c4cc(O)c(I)cc4Cl)NC3=O)Oc3c2c(C)nn3-c2ccccc2)cc1,MTCC 300,-,agar diffusion / agar,-,zone,1 mg/mL,3.6 mm
C[C@H]1O[C@@H](O[C@H]2[C@@H](O)C[C@H](O[C@H]3[C@@H](O)C[C@H](O[C@H]4CC[C@@]5(C)[C@H](CC[C@@H]6[C@@H]5CC[C@]5(C)[C@@H](C7=CC(=O)OC7)CC[C@]65O)C4)O[C@@H]3C)O[C@@H]2C)C[C@H](O)[C@@H]1O,H37Rv,-,BACTEC,-,inhibition,128 µg/mL,78%
CCOC(=O)c1c(NC(=O)c2c(F)c(F)c(F)c(F)c2F)sc2c1CCCCC2,-,-,-,-,MIC,-,1.9 µM
O=C(/C=C/c1ccc(O)cc1)OC[C@@H]1O[C@H](OC(=O)/C=C/c2ccc(O)cc2)[C@@H](O)[C@@H](O)[C@H]1O,ATCC 25177,-,broth dilution / resazurin,-,MIC,-,63 µg/mL
COc1ccc(C2SC(N)=Nc3c2c(C)nn3C(=O)c2ccccc2O)cc1,H37Rv,-,resazurin,-,MIC bound,-,>6.25 µg/mL
O=c1nc(-c2ccc3ccccc3c2)ss1,H37Rv,-,broth dilution,-,MIC90,-,16 µg/mL
Cc1cn2c(C(=O)NCc3ccc(N4CCC(Oc5cccc(C(F)(F)F)c5)CC4)c(F)c3)c(C)nc2s1,H37Rv,-,resazurin / fluorescence,-,MIC,-,<0.39 µM
CCOc1ccc(N2C(=O)/C(=C/c3ccccn3)S/C2=N\c2ccccn2)cc1,H37Rv,-,-,-,MIC,-,≥25 µg/mL
O=C(O)c1cc2oc(-c3ccccc3)cc2[nH]1,H37Rv,-,BACTEC,-,inhibition,12.5 µg/mL,39%
COc1cccc(CNC(=O)c2c(C)nc3sc(C)cn23)c1,H37Rv,-,luminescence,-,MIC,-,>100 µM
Nc1nc(OCc2ccccc2)c2[nH]cnc2n1,H37Rv,-,BACTEC,-,inhibition,6.25 µg/mL,0%
COC(=O)c1c(C)cccc1C1CN=NC12Cc1ccccc1C2=O,H37Rv,-,resazurin,-,inhibition,6.25 µg/mL,-19%
CCOCOc1ccc2c(c1)C(=O)c1nc3ccncc3c(=O)n1-2,H37Rv,-,-,-,MIC,-,0.06 µg/mL
C=CCN1C(=O)/C(=C/c2cccc(OC)c2OC)S/C1=N\c1nc2ccccc2s1,H37Rv,-,-,-,MIC,-,≥25 µg/mL
CCCCCCC(C)c1ccc2c(c1)C(=O)c1nc3ccncc3c(=O)n1-2,H37Rv,-,resazurin,-,MIC bound,-,<6.25 µg/mL
CCCCCCCCO[C@H]1O[C@H](CO[C@H]2O[C@H](CO)[C@@H](O)[C@@H]2O)[C@@H](OC)[C@@H]1OC,H37Ra,-,-,-,MIC,-,>128 µg/mL
CCn1cc(C(=O)O)c(=O)c2cc(F)c(-n3cccc3)cc21,-,-,-,pH 6.8,inhibition,3 µg/mL,100%
C#CCSc1nnc(-c2ccc([N+](=O)[O-])o2)s1,H37Rv,-,-,-,inhibition,6.25 µg/mL,97%
CO[C@H]1/C=C/O[C@@]2(C)Oc3c(C)c(O)c4c(c3C2=O)-c2nc(CC(C)C)[nH]c2C(=NC(=O)/C(C)=C\C=C\[C@H](C)[C@H](O)[C@@H](C)[C@@H](O)[C@@H](C)[C@H](OC(C)=O)[C@@H]1C)C4=O,H37Rv,-,-,-,MIC,-,0.002 µg/mL
CCOC(=O)c1sc(NC(=O)c2c(F)c(F)c(F)c(F)c2F)c(C(=O)OCC)c1C,-,-,-,-,MIC,-,7.1 µM
C#CCSc1nnc(-c2ncc([N+](=O)[O-])n2C)s1,H37Rv,-,-,-,inhibition,6.25 µg/mL,0%
CCOc1ccc(N2C(=O)/C(=C/c3ccco3)S/C2=N\c2ccccn2)cc1,H37Rv,-,-,-,MIC,-,≥25 µg/mL
C[C@@H]1CN(c2c(F)c(N)c3c(=O)c(C(=O)O)cn(C4CC4)c3c2F)C[C@H](C)N1,H37Rv,-,-,-,MIC,-,0.32 µg/mL
COC(=O)c1cc(C(=O)OC)c(CC(=O)C(=O)Nc2ccc(Cl)c(C(F)(F)F)c2)nc1CC(=O)C(=O)Nc1ccc(Cl)c(C(F)(F)F)c1,H37Rv,-,BACTEC,-,MIC bound,-,>12.5 µg/mL
NC(=O)c1c(NC(=O)c2c(F)c(F)c(F)c(F)c2F)sc2c1CCC2,-,-,-,-,MIC,-,10.6 µM
CO[C@H]1/C=C/O[C@@]2(C)Oc3c(C)c(O)c4c(O)c(c5c(c4c3C2=O)NC2(CCN(CC(C)C)CC2)N=5)=NC(=O)/C(C)=C\C=C\[C@H](C)[C@H](O)[C@@H](C)[C@@H](O)[C@@H](C)[C@H](OC(C)=O)[C@@H]1C,22 strains,-,-,-,MIC90,-,12.5 µg/mL
O=c1oc(-c2cccnc2Cl)ns1,H37Rv,-,broth dilution,-,MIC99,-,32 µg/mL
O=C1NC(=O)C2(N1)c1cc([N+](=O)[O-])ccc1-c1ccc([N+](=O)[O-])cc12,H37Rv,-,resazurin,-,inhibition,6.25 µg/mL,3%
O=c1nc(-c2ccccc2Cl)ss1,H37Rv,-,broth dilution,-,MIC99,-,16 µg/mL
CC12C(=C(C#N)C(=N)N1c1ccc(Cl)c(Cl)c1)C=C(O)CC2SCCS(=O)(=O)[O-].[Na+],H37Rv,-,BACTEC,-,inhibition,12.5 µg/mL,10%
Cc1cn2c(C(=O)NCc3ccc(C(F)(F)F)cc3)c(C)nc2s1,H37Rv,QCrb2 M342T,resazurin / fluorescence,-,MIC,-,4.7 µM
CN1C[C@H](C(=O)N[C@]2(C)O[C@@]3(O)[C@@H]4CCCN4C(=O)[C@H](Cc4ccccc4)N3C2=O)C=C2c3cccc4[nH]cc(c34)C[C@H]21,H37Rv,-,BACTEC,-,MIC bound,-,>12.5 µg/mL
O=[N+]([O-])c1cccc(CSc2nnc(-c3ccc([N+](=O)[O-])o3)s2)c1,H37Rv,-,-,-,MIC,-,3.13 µg/mL
CCCCCCCCCCSc1nc(N)nc2c1ncn2CC(=O)N[C@@H](CO)C(=O)OCC,H37Rv,-,BACTEC,-,inhibition,6.25 µg/mL,0%
C=CCN1C(=O)CS/C1=N\c1nc2ccccc2s1,H37Rv,-,-,-,MIC,-,≥25 µg/mL
COC(=O)C1(C)CCCC2(C)C3CC(CO)C(C(C)C)CC3CCC12,H37Rv,-,BACTEC,-,inhibition,12.5 µg/mL,0%
C=C/C(C)=C/C[C@H]1C(=C)CCC2[C@]1(C)CCC[C@]2(C)C(=O)O,H37Ra,-,-,-,EC50,-,14.6 µg/mL
O=C1c2cc([N+](=O)[O-])ccc2-n2c1nc1ccccc1c2=O,H37Rv,-,-,-,MIC,-,0.015 µg/mL
COCCc1c(C(=O)OC)[n+](=O)c2cc(Cl)c(Cl)cc2n1[O-],H37Rv,-,-,inside macrophages,EC99,-,>1.56 µg/mL
CSCCCNC(=O)c1csc(-c2csc(CCNC(=O)[C@H](NSc3ccccc3[N+](=O)[O-])[C@H](C)O)n2)n1,H37Rv,-,BACTEC,-,MIC bound,-,>12.8 µg/mL
CO[C@H]1/C=C/O[C@@]2(C)Oc3c(C)c(O)c4c(O)c(c(/C=N/N5CCN(C)CC5)c(O)c4c3C2=O)NC(=O)/C(C)=C\C=C\[C@H](C)[C@H](O)[C@@H](C)[C@@H](O)[C@@H](C)[C@H](OC(C)=O)[C@@H]1C,MTCC 300,-,agar diffusion / agar,-,MIC,-,280 µg/mL
O=C1c2cc(C(F)(F)F)ccc2-n2c1nc1ccncc1c2=O,H37Rv,-,-,-,MIC,-,0.015 µg/mL
NNC(=O)C(=O)N/N=C(\CC1(O)C(=O)Nc2ccccc21)c1ccc(Cl)cc1Cl,H37Rv,-,BACTEC,-,inhibition,12.5 µg/mL,-9%
O=c1oc(-c2ccc3ccccc3c2)ns1,H37Rv,-,broth dilution,-,MIC99,-,32 µg/mL
CCCCCCc1ccc2c(c1)C(=O)c1nc3ccncc3c(=O)n1-2,H37Rv,-,-,-,MIC,-,0.015 µg/mL
CC[C@@H](CO)NCCN[C@@H](CC)CO,ATCC 25177,-,-,-,MIC,-,3.6 µM
Cn1c(=O)nc2n(-c3ccc(Cl)cc3)c(-c3ccccc3)c(-c3ccccc3)nc-2c1=O,H37Rv,-,BACTEC,-,MIC bound,-,>12.5 µg/mL
O=c1oc(-c2ccc(Cl)cc2)ns1,H37Rv,-,broth dilution,-,MIC99,-,64 µg/mL
O=c1ccnc2c1ccc1[nH]cccc12,H37Rv,-,BACTEC,-,MIC bound,-,>12.5 µg/mL
Clc1ccc(Oc2ncnc3nc[nH]c23)cc1,H37Rv,-,BACTEC,-,inhibition,6.25 µg/mL,0%
Cc1nn(C(=S)S)c(C)c1N=Nc1ccc(F)cc1,H37Rv,-,BACTEC,-,inhibition,12.5 µg/mL,41%
COc1ccc2cc3[n+](cc2c1OC)CCc1cc2c(cc1-3)OCO2,H37Rv,-,-,-,MIC,-,25 µg/mL
CC1(C)C(=O)CC[C@]2(C)[C@H]3CC[C@@]4(C)[C@H](c5ccoc5)OC(=O)[C@H]5O[C@]54[C@]3(C)[C@H](O)C[C@@H]12,H37Rv,-,BACTEC,-,MIC bound,-,>12.5 µg/mL
C=CCSc1nnc(-c2ccc([N+](=O)[O-])o2)s1,H37Rv,-,-,-,inhibition,6.25 µg/mL,84%

7 of the rows above, restated:

compound	strain	changes	read by	conditions	measure	tested at	result
CN1CC2(Cc3ccccc3)c3ccccc3NC2(NC(=O)C(=O)NC23Nc4ccccc4C2(Cc2ccccc2)CN(C)C3=O)C1=O	H37Rv	-	BACTEC	-	inhibition	12.8 µg/mL	25%
C=CCN1C(=O)/C(=C/c2cccc(OC)c2OC)S/C1=N\c1nc2ccccc2s1	H37Rv	-	-	-	MIC	-	≥25 µg/mL
O=c1nc(-c2ccc3ccccc3c2)ss1	H37Rv	-	broth dilution	-	MIC90	-	16 µg/mL
Cn1c(=O)nc2n(-c3ccc(Cl)cc3)c(-c3ccccc3)c(-c3ccccc3)nc-2c1=O	H37Rv	-	BACTEC	-	MIC bound	-	>12.5 µg/mL
Nc1ccc2snc3c2c1C(=O)c1ccccc1-3	H37Rv	-	BACTEC	-	MIC bound	-	>12.5 µg/mL
COC(=O)c1sc(NC(=O)c2c(F)c(F)c(F)c(F)c2F)c(C(N)=O)c1C	-	-	-	-	MIC	-	4.9 µM
COc1ccc(-c2nn(-c3ccccc3)cc2C2C3=C(NC(C)(c4cc(O)c(I)cc4Cl)NC3=O)Oc3c2c(C)nn3-c2ccccc2)cc1	MTCC 300	-	agar diffusion / agar	-	zone	1 mg/mL	3.6 mm

Percent inhibition refers to the dose given; in toxicity tests it is the harm to the cells. MIC bound: limit read from a one-dose screen. Zones are inhibition diameters on agar. A number after MIC or MFC names an inhibition level or a share of isolates. Blank or dashed fields: not listed here. Conditions beyond the fields shown may differ between rows.